# PMC9406121
# Biological target: DT390-IL-13 single-chain fusion cytotoxin (monomer) (Corynebacterium diphtheriae | not stated)
# Assay: non-reducing SDS-PAGE; 4-12% gradient gels, samples in LDS buffer without heating and without reducing agent; stoichiometries from the relative front (Rf) against standards
substance,measurement,value
DT390-IL-13 single-chain fusion cytotoxin (monomer),stoichiometry N,2.1
